Measurements as given in publication PMC3458967.
A negative result means that nothing was seen under these conditions. Tags and fusion partners may be left off the protein sequences shown. The exact form of at least one protein or probe is not confirmed.

Each sequence was assayed on T1, PerR (Fur-like protein, SSU05_0310) (Streptococcus suis serotype 2 strain SC-19) (assay: EMSA). Details: 2-8 ug PerR, 0.1 ug DNA, poly dIdC, no metal added; 20 mM Tris-HCl pH 8.0, 50 mM KCl, 5% glycerol, 0.5 mM DTT, 25 ug/ml BSA, 100 ng poly dIdC, 20 ul, room temperature 15 min; 5% native PAGE; recombinant protein; residues 1-151; protein details: His tag (pET-28a); label: none (ethidium bromide stain); probe letters rebuilt from the primers and the genome.
T1 sequence (looked up): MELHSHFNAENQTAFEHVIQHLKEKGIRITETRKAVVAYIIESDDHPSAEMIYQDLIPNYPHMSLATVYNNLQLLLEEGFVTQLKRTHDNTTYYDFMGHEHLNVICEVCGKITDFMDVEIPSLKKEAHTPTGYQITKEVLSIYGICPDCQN

Question: Does “TTGAGGTCAATGAGGTAGCAGCGGATGCGGCTGTTCGGGAAGTCAAAGAAGAATTAGGGATTGACAGTCGTGTCAATCAATTAGTTTTTGTCGTTGAAAATCAGTTTACACATGAAGGTATAGATTTTCACAATATCGAGTTTCATTTTATCGTTGAGCCTATTGGAGAAATGCCTAAGGAGATGATTGAAGGGAAGTTGAAACAACCGTGTGAATGGATTGCACTTGACAACCTTGTCAACTTAGATGTCGTACCAGCTTTTCTGACACAGGAATTACCAAACTGGAGTGGACAAGTTAAACATATCATGAACATGAAGGAGAGAACAACATG (double strand) [gidA promoter (negative control)]” bind?
Answer: Result: no binding

Question: Does “TCCAGGACTGGTGGCGACAGGTTTGGATCCTAGAGATGGTACGATAGAAGCTTATGAAAGTAGAGGGAACCAAGCTTTGTTTGGTATCCAATGGCATCCAGAATTTTTATACAATGATTGTAAGCAACATCGAGACCTATTTCAGTATTTAGTAGATATATTTTAAGAGGGGTATCCCTCTTTTTATTATCAATACTTATAATTGCAAGGGTATTTGTTATAACGAAAAGTTATAACTTTCTATAAAAAAAGTCAATTAGTCAGAAAGAAAATTCTGTGTTAAGATAGATACAGTTAATTTAAGGAGATCATTTT (double strand) [metQIN promoter]” bind?
Answer: Result: binds

Question: Does “AGCTAGTGTGAGTGCTACGGCACACTTACTGAAACGAAAATTCATAAGAATCCTCCATTTTCTTTTTGTAATAATCTTCTACAATCATTATACAGCTAAGAAATGCAAAATTCAAGACTAATTCTGAACGTTCGTTTGAAAAACGAGTGAAAATAACAAGAAAACGACAGAAAACACGAACGTTACAACCGACTCTGAACTTGGTTTGGATTGTTTGTAATTAGTAGTCTTATGTTAGATTCCTGTTTCGTTTTTCGTGAAAATGGTAGAATAGTAGGAAATATAAGAGGAAGAGTAGAGATATG (double strand) [relA promoter]” bind?
Answer: Result: no binding
